# Measurements reported in PubChem BioAssay AID1224833 (University of Georgia, 2016).
# Test: 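Host factors restraining rotavirus as candidate antiviral genes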 (primary screen)
# Cells: monkey MA104 kidney cells
# Knock-down reagent: siRNA pool against human genes, 50 nM
# Timing: 48 h knock-down before infection; read 24 h after infection
# Conditions: infection with rotavirus strain RV3 two days after transfection; infectious dose for this stage not given
# Read-out: 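z-score of rotavirus antigen signal per well, from a fluorescent immunoassay, relative to non-targeting control wells on the same plate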
# Direction: z-score vs non-targeting control: higher = more rotavirus replication than with non-targeting control
# Hit rule: In these data the active calls have z-score vs non-targeting control at about -1 or lower, or at about 1 or higher
# Meaning of the calls: active = z-score beyond 1 either way; inactive = z-score within 1 of zero
# The whole screen tested about 12,000 reagents; this is an unselected part. About 5,600 of all reagents (46%) count as active. 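Active calls cover z-scores past 1 in both directions, so they include lowered as well as raised rotavirus replication.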 Unmarked entries are inactive.
gene,z-score vs non-targeting control
TSNAX,-2.44 (active)
ZNF354A,-2.65 (active)
FAM217A,-0.0456
ZP3,-0.028
GML,-1.47 (active)
TRO,-2.12 (active)
PARP16,-0.878
SCIN,-0.43
SPIC,-2.22 (active)
B3GALT6,-2.14 (active)
TM9SF2,-0.805
IFNAR1,-1.29 (active)
EOLA2,0.0735
HIC2,1.21 (active)
LIG3,-1.28 (active)
NFIC,-1.45 (active)
EGLN3,0.614
FGA,-2.04 (active)
ZNF586,-0.609
HSPB2,-0.851
WDR37,-1.6 (active)
NFYB,1.29 (active)
HJV,-0.582
NUP88,-1.34 (active)
FER1L6,0.68
FLNA,3.31 (active)
PCDHB4,-0.183
NR6A1,-0.52
ARHGEF37,-0.636
WDR31,-3.32 (active)
SOX11,-0.563
LAPTM4A,0.361
IQCB1,-0.549
HMGCLL1,1.14 (active)
DYNLT2B,-1.71 (active)
MAD2L2,0.576
HEY2,0.563
NPVF,-1.36 (active)
FAM107A,-0.919
NEU4,-1.69 (active)
FAM117B,-0.941
NOD2,-0.742
ATCAY,0.0809
SLITRK4,-0.515
AFF3,-0.429
TTC1,-0.691
BOD1,-1.89 (active)
PPIF,-1.1 (active)
VNN2,-3.15 (active)
CHMP2A,0.883
CYTH2,-0.704
PPP1R42,1.32 (active)
AP1S3,0.506
LAMC3,-6.19 (active)
GPX6,-0.963
TAS2R14,1.79 (active)
CUEDC1,0.843
NAA38,-0.917
DOCK9,1.12 (active)
DEFB121,0.478
KCNG2,-0.249
CREBRF,-2.47 (active)
MYH7B,-2.09 (active)
PTMS,0.62
DEGS2,3.08 (active)
ABHD4,-1.46 (active)
SLIT2,-0.781
NF2,-1.25 (active)
LINGO1,0.0185
TEP1,1.82 (active)
UBQLN2,-0.782
CLEC3A,0.588
CYP26C1,0.0832
MFAP1,0.489
WDR90,-2.24 (active)

Copied from the list.
GML, z-score vs non-targeting control: -1.47 (active)
NR6A1, z-score vs non-targeting control = -0.52
Result for NFYB under “z-score vs non-targeting control”: 1.29 (active)
For “z-score vs non-targeting control”, AFF3 reads -0.429
Value of FER1L6 in “z-score vs non-targeting control”: 0.68
For “z-score vs non-targeting control”, FGA shows -2.04 (active)
